In US10160756B2 (priority 2014, dated 2018):

System: VSV-PY>A4
Conditions: 8 h post-infection

Row | Structure (SMILES) | reduction of budding of VSV-PY>A4 (10 μM) [fold] | reduction of budding of VSV-PY>A4 (0.1 μM) [fold] | reduction of budding of VSV-PY>A4 (0.5 μM) [fold]
1 | O=C(CN1CCCC(c2nc3ccccc3s2)C1)NC(=O)NCC(F)(F)F (stereo not drawn) [Compound 1, 2-(3-(benzo[d]thiazol-2-yl)piperidin-1-yl)-N-((2,2,2-trifluoroethyl)carbamoyl) acetamide] | < 2 | – | –
2 | Cc1nc2ccccc2nc1SCC(=O)NC(=O)Nc1ccccc1 [Compound 5, 2-((3-methylquinoxalin-2-yl)thio)-N-(phenylcarbamoyl)acetamide] | – | < 2 | < 2

Read-outs that look alike come from different tables or passages of the source.
